From US20160052996A1 (NEURIMMUNE, published 2016)

Chains of the proteins cited; added tags and fusions are not shown. Lines headed by an entry give the natural chain unless they say otherwise; changes in a name come on top. Residues count along the entry.
UniProt P02769, 25-607 limits assumed: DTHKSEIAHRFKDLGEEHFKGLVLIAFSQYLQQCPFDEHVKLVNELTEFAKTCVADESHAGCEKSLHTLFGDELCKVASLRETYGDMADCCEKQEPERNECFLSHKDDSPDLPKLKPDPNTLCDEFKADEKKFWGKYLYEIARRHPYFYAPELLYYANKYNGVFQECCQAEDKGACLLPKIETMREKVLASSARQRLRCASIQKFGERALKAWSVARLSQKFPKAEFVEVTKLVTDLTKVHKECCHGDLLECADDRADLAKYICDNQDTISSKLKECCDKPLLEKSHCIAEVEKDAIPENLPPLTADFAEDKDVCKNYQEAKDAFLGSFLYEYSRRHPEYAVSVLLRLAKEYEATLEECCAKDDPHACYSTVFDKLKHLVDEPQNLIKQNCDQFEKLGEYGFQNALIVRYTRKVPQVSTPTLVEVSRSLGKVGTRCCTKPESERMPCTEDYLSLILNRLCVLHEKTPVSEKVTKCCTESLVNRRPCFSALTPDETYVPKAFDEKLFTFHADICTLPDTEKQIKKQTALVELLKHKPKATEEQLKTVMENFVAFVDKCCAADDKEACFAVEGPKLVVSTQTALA
UniProt P03089: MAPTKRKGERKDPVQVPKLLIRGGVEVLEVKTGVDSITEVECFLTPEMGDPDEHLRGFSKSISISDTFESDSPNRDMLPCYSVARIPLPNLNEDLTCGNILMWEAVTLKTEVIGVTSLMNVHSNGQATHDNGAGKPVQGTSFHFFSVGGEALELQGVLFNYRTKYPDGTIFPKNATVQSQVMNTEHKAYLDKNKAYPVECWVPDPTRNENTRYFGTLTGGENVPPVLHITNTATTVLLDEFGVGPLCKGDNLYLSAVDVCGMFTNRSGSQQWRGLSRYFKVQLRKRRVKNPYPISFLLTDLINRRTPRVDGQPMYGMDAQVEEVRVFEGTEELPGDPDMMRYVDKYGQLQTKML

Columns and labels:
BSA (Sigma-Aldrich) = molecular target: T1, BSA (Sigma-Aldrich) (bovine, UniProt P02769 25-607); assay: direct ELISA
T1 construct: also called bovine serum albumin

JCV VP1 VLP = molecular target: T2, JCV VP1 VLP (JC virus (JCV), Mad-1 strain, UniProt P03089 1-354); assay: direct ELISA
T2 construct: also called JCV VP1 VLPs; JCV VP1 (coating with reassociation buffer)

peptide 82 (325-[…]-339) = molecular target: T3, peptide 82 (325-[…]-339) (JC virus (JCV)); assay: pepscan, peptides on membrane
T3 construct: also called spot 82

peptide 83 (329-[…]-343) = molecular target: T4, peptide 83 (329-[…]-343) (JC virus (JCV)); assay: pepscan, peptides on membrane
T4 construct: also called spot 83

B1: NI-307.11G6 (antibody, V domains shown)
VH: QVQLVESGGDLVKPGGSLRLSCAASGFTFSDHYMSWIRQAPGKGLEWVSYISTRSTYTNYADSVKGRFTISRDNAKNSLYLHMNSLRTEDTAVYYCARDYSDTSGPPDYWGQGTLVTVSS
VL: QSVLTQPPSASGTPGQRVTISCSGSNSNIGSNYVYWYQQLPGTAPKLVIYRNTQRPSGVPDRFSGSKSGTSASLAISGLRSEDEADYYCAAWDDSLSGLVFGGGTKLTVL
binding result (BSA (Sigma-Aldrich)): no binding | EC50 (JCV VP1 VLP): 11.8 pM | binding result (peptide 82 (325-[…]-339)): binds | binding result (peptide 83 (329-[…]-343)): binds
